Compound potency records, mixed from different reports. Data source: NIAID ChemDB in PubChem.

Shared fields: growth or infection tests; agent: HIV-1

ECn is the concentration giving n% inhibition of infection, replication or growth.

smiles	method	strain	mutations	cells	read-out	setting	value
Cc1cn([C@H]2C[C@H](N=[N+]=[N-])[C@@H](CO)O2)c(=O)[nH]c1=O	β-galactosidase	IIIB		MAGI + MAGI-CCR5	EC50	3 d	0.056 µM
Cc1c(Sc2ccccc2)n(COCCO)c(=O)[nH]c1=O				MM + M/M	EC50		0.02 µg/mL
CC[C@H](C)[C@H](NC(=O)Cc1ccccn1)C(=O)N[C@@H](Cc1ccccc1)[C@@H](O)[C@H](O)[C@H](Cc1ccccc1)NC(=O)[C@@H](NC(=O)Cc1ccccn1)[C@@H](C)CC		RF		MT-2	EC50		0.09 µg/mL
CN(C)c1cccc2c(S(=O)(=O)N3CCSC3c3cccnc3)cccc12	β-galactosidase	IIIB		MAGI + MAGI-CCR5	EC50	3 d	4.614 µM
Nc1cccc(CN2C(=O)N(Cc3cccc(N)c3)[C@H](Cc3ccc4c(c3)CCO4)[C@H](O)[C@@H](O)[C@H]2Cc2ccc3c(c2)CCO3)c1		RF		MT-2	EC50		<0.0306 µM
Cc1c(O)cccc1C(=O)N[C@@H](CSc1ccccc1)[C@H](O)CN1C[C@H]2CCCC[C@H]2C[C@H]1C(=O)NC(C)(C)C	p24	JSL	MDR	PBMC	EC50		>1 µM
Cc1cc(C)c(-n2nnnc2SCC(=O)Nc2ccccc2[N+](=O)[O-])c(C)c1	p24			MT-4	EC50	10% FBS	<0.011 µM
CCOP(=O)(/C=C/n1cc(F)c(=O)[nH]c1=O)OCC		IIIB		CEM + CEM-SS	EC50		>200 µM
O=c1[nH]cnc2c1ncn2C1CC[C@@H](CO)O1	p24 / ELISA		M184V	Primary T lymphocytes	EC50		11.5 µM
Cc1cn([C@H]2C[C@H](N=[N+]=[N-])[C@@H](CO)O2)c(=O)[nH]c1=O	p24	IIIB BCH-189-resistant (RT M184V)	RT-M184V	MT-4	EC50		0.03 µM
CC(C)c1nc(CN(C)C(=O)N[C@H](C(=O)N[C@@H](Cc2ccccc2)C[C@H](O)[C@H](Cc2ccccc2)NC(=O)OCc2cncs2)C(C)C)cs1	cytopathic effect / MTT	NRTI resistant	RT K70R T215Y 69SS A62V E79K V118I M184V E203K L210W	MT-4	EC50		0.1 µg/mL
CC(C)(C)[Si](C)(C)OC[C@H]1O[C@@H](n2cnc3[nH]c(=O)[nH]c(=O)c32)[C@H](O[Si](C)(C)C(C)(C)C)C12OS(=O)(=O)C=C2N	syncytia	IIIB		CEM	EC50		0.08 µg/mL
CCCN(C)C(=O)Oc1nsnc1-c1c(Cl)ccc(OCOC)c1Cl	cytopathic effect / MTT	IIIB		MT-4	EC50		0.067 µM
CC(=O)Oc1ccc(/C=C/C(=O)O[C@H](C(=O)O)[C@H](OC(=O)/C=C/c2ccc(OC(C)=O)c(OC(C)=O)c2)C(=O)O)cc1OC(C)=O	cytopathic effect / MTT	IIIB		MT-4	EC50		3.8 µM
Cc1c(O)c(=O)ccn1C	XTT / p24	BaL		Macrophage + Monocytes/macrophages	EC50		>100 µM
CC(=O)c1ccc(C)cc1NC(C(N)=O)c1c(Cl)cccc1Cl	cytopathic effect / MTT	IIIB		U-937	EC50		0.026 µM
Cc1cn([C@H]2C[C@H](N=[N+]=[N-])[C@@H](CO)O2)c(=O)[nH]c1=O	p24	9632 CLADE B CLADE B		PBMC	EC50		0.021 µM
c1cc(CN2CCCNCCNCCCNCC2)ccc1CN1CCCNCCNCCCNCC1	MTT	BaL		PBMC	EC50		>1 µM
Cc1cn([C@H]2C[C@H](N=[N+]=[N-])[C@@H](CO)O2)c(=O)[nH]c1=O	cytopathic effect / MTT	NL4-3		MT-4	EC50		0.004 µM
O=c1[nH]cnc2c1ncn2[C@H]1CC[C@@H](CO)O1	p24	JSL	MDR	PBMC	EC50		2.5 µM
Cn1cnc2c(ncn2[C@@H]2O[C@H](CO[Si](C)(C)C(C)(C)C)C3(OS(=O)(=O)C=C3N)[C@H]2O[Si](C)(C)C(C)(C)C)c1=O	syncytia	IIIB		CEM	EC50		0.06 µg/mL
CCOP(=O)(/C=C/n1ccc(N)nc1=O)OCC		IIIB		CEM + CEM-SS	EC50		>200 µM
Cc1cc(C)c(-n2nnnc2SCC(=O)Nc2ccc(C(=O)NCCCN(C)C)cc2Cl)c(C)c1	p24			MT-4	EC95	50% human serum	0.062 µM
C[C@H](Cn1cnc2c(N)ncnc21)OCP(=O)(O)O	syncytia	Clinical isolate C20	RT-M41L D67N V118I M184V L210W T215Y	CEM	EC50		23.5 µg/mL
CC(C)(C)NC(=O)[C@H]1N(C(=O)[C@@H](O)[C@H](Cc2ccccc2)NC(=O)[C@H](CC(N)=O)NC(=O)COc2cccc3ccccc23)CSC1(C)C	p24	Clinical isolates		PBMC	EC50		0.13 µM
O=c1[nH]c(=O)n([C@H]2C[C@H](F)[C@@H](CO)O2)cc1Cl	plaque count	RT M184V (3TC FTC resistant)	RT-M184V	CD4+HELA + HeLa	EC50		17.6 µM
Cc1ccnc2c1NC(=O)c1cccnc1N2C1CC1	cytopathic effect / MTT	HE-NEV		MT-4	EC50	5 d	>1000 µM
Cc1ccnc2c1NC(=O)c1cccnc1N2C1CC1	syncytia	IIIB		CEM	EC50		0.032 ± 0.029 µg/mL
CC(C)(C)NC(=O)[C@@H]1CSCN1C(=O)[C@@H](O)[C@H](Cc1ccccc1)NC(=O)[C@H](CC(N)=O)NC(=O)COc1cccc2ccccc12	p24	Clinical isolates		PBMC	EC90		0.24 µM
CNC(C)[C@H]1O[C@H](O[C@@H]2[C@@H](O)[C@H](O[C@@H]3OC[C@@](C)(O)[C@@H](NC)[C@@H]3O)[C@@H](NC(=O)[C@@H](N)CCCN=C(N)N)C[C@H]2NC(=O)[C@@H](N)CCCN=C(N)N)[C@H](NC(=O)[C@@H](N)CCCN=C(N)N)[C@@H](O)[C@@H]1O	cytopathic effect / MTT	AZT-resistant Clinical isolate		MT-4	EC50		22 µM
Cc1cn([C@H]2C[C@H](N=[N+]=[N-])[C@@H](CO)O2)c(=O)[nH]c1=O	p24 / ELISA / antigen	B940374 (subtype B)		PBMCs	EC50	4 d	0.31 µM
Nc1ccn([C@H]2CC[C@@H](CO)O2)c(=O)n1	p24	HXB2		PBMC	EC90		0.7 µM
CNc1cccc(CN2C(=O)N(Cc3cccc(NC)c3)[C@H](Cc3ccc4c(c3)OCCO4)[C@H](O)[C@@H](O)[C@H]2Cc2ccc3c(c2)OCCO3)c1		RF		MT-2	EC50		<0.0087 µM
Cc1cn([C@H]2C[C@H](F)[C@@H](CO)O2)c(=O)[nH]c1=O	cytopathic effect	IIIB		MT-4	EC50		0.016 ± 0.003 µM
O=C1N(Cc2ccc(CO)cc2)[C@H](COc2ccccc2)[C@H](O)[C@@H](O)[C@@H](COc2ccccc2)N1Cc1ccc(CO)cc1	cytopathic effect / XTT	IIIB	PR-L10F I84V	MT-4	EC50		2.22 µM
O=C1Nc2ccc(Cl)cc2[C@@](C#CC2CC2)(C(F)(F)F)O1	p24 / ELISA		4xAZT	Primary T lymphocytes	EC90		0.2 µM
Nc1ncnc2c1ncn2CCOCP(=O)(O)O	syncytia	Clinical isolate DE434.4	RT-K65R S68G T69I V75T Q151M	CEM	EC50		70 µg/mL
Cc1cc(C)c(-n2nnnc2SCC(=O)Nc2ccc(S(N)(=O)=O)cc2Cl)c(C)c1	p24			MT-4	EC50	50% human serum	<0.062 µM
Cc1cn([C@@H]2O[C@H](CO[Si](C)(C)C(C)(C)C)C3(OS(=O)(=O)C=C3N)[C@H]2O[Si](C)(C)C(C)(C)C)c(=O)n(C)c1=O				MM + M/M	EC50		0.08 µg/mL
Cc1cn([C@H]2C[C@H](N=[N+]=[N-])[C@@H](CO)O2)c(=O)[nH]c1=O	syncytia	IIIB		CEM	EC50		0.003 ± 0.001 µM
CCC(C)Nc1nc(N)nc2c1[nH]c[n+]2C[C@@H](C)OCP(=O)(O)O	cytopathic effect / MTT	IIIB		CEM	EC50		>100 µg/mL
NS(=O)(=O)c1ccc(NC(=O)CSc2nnnn2-c2cc(Cl)ccc2Cl)c(Cl)c1	p24			MT-4	EC50	10% FBS	<0.016 µM
CC(C)[C@H](NC(=O)OCc1ccccc1)C(=O)N[C@@H](Cc1ccccc1)[C@@H](O)[C@H](O)[C@H](Cc1ccccc1)NC(=O)[C@@H](NC(=O)OCc1ccccc1)C(C)C		RF		MT-2	EC50		<0.02 µg/mL
CCCCN1C(=O)C(CC2CCCCC2)NC(=O)C12CCN(Cc1ccc3c(c1)OCCO3)CC2	p24	MOKW		PBMC	EC50		0.04 µM
C[C@H](Cn1cnc2c(N)ncnc21)OCP(=O)(O)O	cytopathic effect / MTT	IIIB		MT-4	EC50		1.91 ± 0.41 µg/mL
CCCN(C)C(=O)Oc1nsnc1-c1c(Cl)ccc(N)c1Cl	p24	clinical isolate A018C AZT-resistant		MT-4	EC50		0.025 µM
CCOP(=O)(/C=C\n1cnc2c(N)ncnc21)OCC		IIIB		CEM + CEM-SS	EC50		>200 µM
O=C1N(Cc2ccc3ccccc3c2)[C@H](Cc2ccc3c(c2)OCCO3)[C@H](O)[C@@H](O)[C@@H](Cc2ccc3c(c2)OCCO3)N1Cc1ccc2ccccc2c1		RF		MT-2	EC50		<0.098 µM
CCCCN1C(=O)C(CC2CCCCC2)NC(=O)C12CCN(Cc1cnc(-c3ccccc3)[nH]1)CC2	p24	NL4-3		PBMC	EC50		>1 µM
Nc1cccc(CN2C(=O)N(Cc3cccc(N)c3)[C@H](Cc3ccccc3)[C@H](O)[C@@H](O)[C@H]2Cc2ccccc2)c1		RF		MT-2	EC50		<0.15 µM
CN(C)CCNc1ncnc2c1ncn2CCOCP(=O)(O)O	cytopathic effect / MTT	IIIB		CEM	EC50		>100 µg/mL
CNc1ncnc2c1ncn2[C@@H]1O[C@H](CO[Si](C)(C)C(C)(C)C)C2(OS(=O)(=O)C=C2N)[C@H]1O[Si](C)(C)C(C)(C)C	syncytia	IIIB		CEM	EC50		0.16 µg/mL
Cc1cc(C)c(-n2nnnc2SCC(=O)Nc2ccc(OCCCN(C)C)cc2Cl)c(C)c1	p24			MT-4	EC95	10% FBS	0.031 µM
CN(C)c1cccc2c(S(=O)(=O)N3CCSC3c3ccncc3)cccc12	cytopathic effect / MTT	IIIB		MT-4	EC50		>5.56 µM
C[C@H](Cn1cnc2c(N)ncnc21)OCP(=O)(O)O	p24 / ELISA / antigen			PBMCs	EC50		1.5 µM
C[C@H](Cn1cnc2c(N)ncnc21)OCP(=O)(O)O				MM + M/M	EC99		0.7 µM
N#CC[C@H](C1CCCC1)n1cc(-c2ncnc3[nH]ccc23)cn1	p24 / ELISA		4xAZT	Primary T lymphocytes	EC90		2.4 µM
O=c1[nH]c(=O)n(/C=C/P(=O)(O)O)cc1F		IIIB		CEM + CEM-SS	EC50		>200 µM
CC(C)=CCN1Cc2cc(Cl)cc3[nH]c(=S)n(c23)C[C@@H]1C				Primary lymphocytes + Lymphocytes	EC50		0.04 µg/mL
Nc1cccc(CN2C(=O)N(Cc3cccc(N)c3)[C@H](Cc3ccc4c(c3)OCCO4)[C@H](O)[C@@H](O)[C@H]2Cc2ccc3c(c2)OCCO3)c1		RF		MT-2	EC50		<0.04 µM
C=CCNc1ncnc2c1ncn2C[C@@H](C)OCP(=O)(O)O	cytopathic effect / MTT	IIIB		CEM	EC50		12 ± 2.8 µg/mL
O=C1N(Cc2ccc(CO)cc2)[C@H](Cc2ccccc2)[C@H](O)[C@@H](O)[C@@H](Cc2ccccc2)N1Cc1ccc(CO)cc1	p24	IIIB		PBMC	EC50		0.018 µM
CCOC(=O)[C@H](C)N[P@](=O)(CO[C@@H]1C=C(F)[C@H](n2cnc3c(N)ncnc32)O1)Oc1ccccc1	p24 / ELISA / antigen			PBMCs	EC50		0.0037 µM
CCOP(=O)(/C=C\n1cc(C)c(=O)[nH]c1=O)OCC		IIIB		CEM + CEM-SS	EC50		>200 µM
Nc1ncnc2c1ncn2[C@@H]1O[C@H](OCP(=O)(O)O)C=C1F	p24 / ELISA / antigen	LJM (subtype B)		PBMCs	EC50	4 d	8.2 µM
Cc1cc(C)c(-n2nnnc2SCC(=O)Nc2ccc([N+](=O)[O-])cc2)c(C)c1	p24			MT-4	EC95	10% FBS	>5 µM
CC(=O)c1cccc(CN2C(=O)N(Cc3cccc(C(C)=O)c3)[C@H](Cc3ccc4c(c3)N(C)CCO4)[C@H](O)[C@@H](O)[C@H]2Cc2ccc3c(c2)N(C)CCO3)c1		RF		MT-2	EC50		<0.0164 µM
Nc1ccn([C@H]2CC[C@@H](CO)O2)c(=O)n1	syncytia	IIIB		CEM	EC50		0.035 ± 0.007 µM
COc1cc(C[C@@H]2[C@H](O)[C@@H](O)[C@@H](Cc3cc(OC)cc(OC)c3)N(Cc3ccccc3)C(=O)N2Cc2ccccc2)cc(OC)c1		RF		MT-2	EC90		>5 µM
Cc1c(N)nc(N)nc1OCCOCP(=O)(O)O	syncytia	Clinical isolate C19	RT-M41L V118I L210W T215Y	CEM	EC50		0.53 µg/mL

An empty or dashed field is not shown. Lines come from different laboratories, so protocols vary.